PubChem BioAssay AID504761 | Drosophila RNAi Screening Center | 2011
Test: 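Insect host genes that dengue virus relies on to spread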 (primary screen). Cell system: D.Mel-2 cells from Drosophila. Knock-down reagent: long dsRNA against Drosophila genes. Challenge: infection with dengue virus type 2; dose and infection time not stated. Measurement: 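Per well on two replicate plates, imaging gave the percent of cells positive for viral envelope protein, ranked by infection, and a nuclear count of cells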. Scale: infection score: higher = more virus-infected cells; cell count: higher = more cells in the well. Call rule: 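Low infection ranks in the two replicates (chance level up to 0.065) followed by a retest with a 1.5-fold or larger significant decrease, p below 0.05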. Meaning of the calls: active = confirmed: knock-down lowers infection; inactive = not picked or not confirmed.
In all, the deposit lists about 22,000 reagents; below is a random part of those that have a named target and a result. In the full data, 116 (0.52%) were called active. 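Calls depend on retest data that are not deposited; infection was ranked per plate without normalising between plates; the unit of the infection score is not given.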 Raw values are not corrected between plates. Unmarked entries are inactive. Names joined by + are all predicted targets of the reagent. Not stated in the record: the amount of reagent, the time to read-out.

gene knocked down	PubChem SID	infection score, replicate 1	infection score, replicate 2	cell count, replicate 1	cell count, replicate 2
CG3702	SID104180420	1.29	5.1	6255	5806
CG6765	SID104190498	3	0.53	6358	6566
CG6765	SID104203294	1.15	5.01	6183	6125
CG14740	SID104194752	4.82	15.7	1744	5995
Sgs4	SID104198507	1.91	1.75	6013	6125
Sgs4	SID104207508	14.1	19.2	3380	5737
CG13086	SID104181982	5.89	1.6	5964	6678
CG13086	SID104206082	12.3	12.8	6765	6597
CG18853 + phr	SID104206030	6.81	9.74	5818	6551
salt	SID104195219	1.17	1.55	6079	6143
salt	SID104204059	5.04	2.75	6129	6186
wit	SID104188533	11.6	14.1	5417	5740
wit	SID104204635	9.58	1.51	5949	6871
Brca2	SID104184011	2.28	3.68	7003	6824
Brca2	SID104184012	6.33	4.84	6630	6548
CG15357	SID104180179	22.7	3.83	4737	6817
ine	SID104180614	9.25		2280	447
ine	SID104207418	10.1	8.47	5306	4166
CG5543	SID104184303	12.8	45	5535	4922
CG31922	SID104201380	1.79	4.57	5977	6865
CG31922	SID104205077	0.73	1.11	6334	5948
Gr97a	SID104193594	1.76	1.5	6093	6149
CG14659	SID104192037	5.52	8.08	6757	6806
Kua	SID104181892	6.8	12.2	6777	5115
pip	SID104191174	2.6	2	6394	6365
pip	SID104207123			388	344
CG9570	SID104200479	1.94	1.17	6123	6247
CG32075	SID104190414	2.62	3.36	6309	5855
CG32075	SID104208425	23.7	2.31	5068	6137
BicC	SID104181797	12.3	1.6	5997	6627
BicC	SID104208220			253	357
frac	SID104190659	11.8	7.33	3223	4992
frac	SID104207783	7.02	11.8	883	6070
BomT2	SID104186423		14.7	385	4922
CG13725	SID104189846	6.18	4.86	6428	6293
dop	SID104190447	9.86	8.54	2242	2727
dop	SID104208069	14.4	2.1	5619	1384
U3-55K	SID104185774	26.1	15.5	4908	4984
U3-55K	SID104207634	22.9	18.5	4509	5903
CG1701	SID104186433	9.42	7.1	6436	6439
CG18278 + CG30059	SID104185210	1.7	0.69	6573	5947
Rpn8	SID104184416	1.1	0.75	1187	532
Rpn8	SID104208441	25.1	7.56	4214	5292
Phf5a	SID104183053	4.34	0.9	6244	6658
svp	SID104192691	5.37	3.05	6206	5601
svp	SID104196867	10.8	30.6	5459	5229
svp	SID104206308	11.3	11.1	6549	6694
Tps1	SID104180061	4.35	12	6626	4683
Tps1	SID104205875	10.5	3.67	5441	6724
pix	SID104190325	3.2	3.71	2967	2156
CG13931	SID104188192	2.06	0.58	5924	6199
CG13931	SID104204079	2.24	4.15	6470	6379
NimC2	SID104181673	11.5		5830	590
eIF2Bgamma	SID104186892	46.3	30.2	4752	5779
eIF2Bgamma	SID104208309	27.2	17.9	5536	5883
CG13005	SID104199316	6.31	10.2	6072	6308
CG13871	SID104186222	1.46	2.15	6034	6090
CG13871	SID104206523	1.86	4.28	6894	6654
PrBP	SID104182981	4.24	2.94	6373	6598
PrBP	SID104204406	1.25	1.57	6248	6299
Nup160 + RfC38	SID104181789	24.6	14.2	6126	6011
CG31051	SID104194826	6.07	13.2	5984	6211
Fife	SID104202756	19.1	16.1	4458	5674
BTBD9	SID104197940	5.12	3.49	6305	6506
BTBD9	SID104201855	2.85	5.56	6318	6597
Cth	SID104187214	7.68	13.9	6014	6001
l(3)mbn	SID104188585	4.62	0.71	4853	845
lov	SID104184071	18.7	16.9	5888	4466
lov	SID104184457	1.35	3.1	6941	7108
lov	SID104205752	1.93	5.4	5849	6108
CG15043	SID104199411	7.93	15.4	5357	4952
CG15043	SID104208107	15.8	13.4	2907	4768
l(2)34Fd	SID104181703	9.72	9.14	5337	5525
futsch	SID104197480	4.45	1.61	6465	6526
futsch	SID104197741	0.71	0.77	6232	6584
futsch	SID104197744	4.92	13.6	5956	6591
futsch	SID104198335	8.05	0.65	5538	6575
futsch	SID104204971	4.45	3.57	5103	6380

Entries listed so far whose target name starts with L or l:
gene knocked down	PubChem SID	infection score, replicate 1	infection score, replicate 2	cell count, replicate 1	cell count, replicate 2
l(3)mbn	SID104188585	4.62	0.71	4853	845
lov	SID104184071	18.7	16.9	5888	4466
lov	SID104184457	1.35	3.1	6941	7108
lov	SID104205752	1.93	5.4	5849	6108
l(2)34Fd	SID104181703	9.72	9.14	5337	5525
